Test results reported in patent US20230330134A1, “METHOD OF PROPHYLAXIS OF CORONAVIRUS AND/OR RESPIRATORY SYNCYTIAL VIRUS INFECTION” (Starpharma Pty Ltd., priority 2020, published 2023).

Settings: rats; 4 times daily administration for 7 days

astodrimer sodium [SPL7013]
systemic absorption after application to the nasal mucosa: not absorbed systemically
